Experimental data reported in patent US20230312571A1, “RING-MODIFIED PROLINE SHORT PEPTIDE COMPOUND AND USE THEREOF” (priority 2021, published 2023).
Read-outs that look alike come from different tables or passages of the source.

Tests used:
coronavirus HCoV OC43 = experiment: In vitro anti-coronavirus activity by cytopathic model (CPE, CellTiter Glo); conditions: HCoV OC43 100 TCID50/well, MRC5 cells, 5 days
Method: MRC5 cells and coronavirus HCoV OC43 were purchased from ATCC.
(§1) MRC5 cells were cultured in MEM (Sigma) medium supplemented with 10% fetal bovine serum (Excell), 1% double antibody (Hyclone), 1%L-glutamine (Gibco) and 1% non-essential amino acids (Gibco). MEM (Sigma) medium supplemented with 5% fetal bovine serum (Excell), 1% double antibody (Hyclone), 1% L-glutamine (Gibco) and 1% non-essential amino acid (Gibco) was used as the experimental culture medium.
(§2) Cells were inoculated into a 96 microwell plate at a certain density (Table 6) and cultured overnight in an incubator at 5% CO2 and 37° C. On the second day, the compound was added after doubling dilution (8 concentration points, duplicate wells), with 50 µL per well. Then the diluted virus was added to the cells at 100 TCID50 per well, 50 µL per well. Cell control (cell without compound treatment or virus infection), virus control (cell infected with virus without compound treatment) and culture medium control (only culture medium) were set. […] Cell viability was detected using the cell viability assay kit CellTiter Glo (Promega). […]
(§3) GraphPad Prism was used to perform nonlinear fitting analysis on the inhibition rate and cell viability of the compound, and the half effective concentration (EC50) and half cytotoxic concentration (CC50) of the compound were calculated.

SARS-CoV-2 Mpro = SARS-CoV-2 Mpro (Severe acute respiratory syndrome coronavirus 2 (2019-nCoV) (SARS-CoV-2), UniProt P0DTD1); experiment: In vitro anti-novel coronavirus Mpro protease activity (fluorescent substrate cleavage); assay type: biochemical; conditions: 25 nM Mpro protein, 25 µM substrate
MRC5 cells = experiment: Cytotoxicity in the cytopathic model, without virus infection (CellTiter Glo)
Method: as §1, §2, §3

SMILES: CC(C)(C)[C@H](NC(=O)C(F)(F)F)C(=O)N1[C@@H]2CC[C@@H](C2)[C@H]1C(=O)N[C@H](C#N)C[C@@H]1CCNC1=O
- EC50 (coronavirus HCoV OC43): 191 nM
- IC50 (SARS-CoV-2 Mpro): 94 nM
- CC50 (MRC5 cells; MRC5 cells, 5 days, no virus): > 10000 nM

SMILES: N#C[C@H](C[C@@H]1CCNC1=O)NC(=O)[C@@H]1[C@H]2CC[C@H](C2)N1C(=O)[C@@H](NC(=O)COc1ccc(F)cc1)C12CC3CC(CC(C3)C1)C2
- IC50 (SARS-CoV-2 Mpro): 119 nM

SMILES: CC(C)(C)[C@H](NC(=O)C(F)(F)F)C(=O)N1C[C@@H]2CCC[C@@H]2[C@H]1C(=O)N[C@H](C#N)C[C@@H]1CCNC1=O
- EC50 (coronavirus HCoV OC43): 83 nM
- CC50 (MRC5 cells): > 10000 nM
